Results on 16 molecules are retold here after US20250026813A1, “Antibodies against sars-cov-2 and uses thereof” (published 2025).

The labels stand for the following.
B1: IMPI-027 (antibody, V domains shown)
VH: QVQLQESGPGLVKPSQTLSLTCTVSGGSISSYGYYWNWIRQHPGKGLEWIGYIYYSGSTYYNPSLKSRVTISVDTSKNQLSLRLNSVSAADTAVYYCARDFGGNSNYFDYWGQGTLVTVSS
VL: AIQLTQSPSSLSASVGDRVTITCRTSQGISSALAWYQQKPGKAPKLLIYDASSLESGVPSRFSGSGSGTDFTLTISSLQPEDFATYYCQQFNSYPLTFGGGTKVEIK
B2: IMPI-033 (antibody, V domains shown)
VH: B1 VH with N37S, I71M
VL: B1 VL with T25A, K45N, Y94S
B3: IMPI-068 (antibody, V domains shown)
VH: QVQLVESGGDVVQPGRSLRLSCAASGFTFSRYGMHWVRQAPGKGLEWVAVISYDGSDKYYADSVKGRFTISRDNSKNTLYLQMNSLRAEDTAVYYCAKQLPLYYYYYGMDVWGQGTTVTVSS
VL: B1 VL with T25A, K45N, S93I, L96H, G100P, E105D
B4: IMPI-059 (antibody, V domains shown)
VH: EVQLVESGGGLIQPGGSLRLSCAASGFTVSSIYMSWVRQAPGKGLEWVSIIYSRGSTDYADSVKGRFTISRDISKNTLYLQMNSLRAEDTAVYYCARDGTMVRGVHAFDIWGQGTMVTVSS
VL: DIQMTQSPPSLSASIGDRVTITCQASQDISNYLNWYQQKPGKAPKLLIYDASNLETGVPSRFSGSGSGTDFTLTISNLQPEDIVTYYCQQYDNLPSSFGQGTKLEIK
B5: IMPI-055 (antibody, V domains shown)
VH: QVQLVQSGAEVKKPGASVKVSCKASGYTFTSYDINWVRQATGQGLEWMGWMNPNSGNTGYAQKFQGRVTMTRDTSINTAYMELSSLRSEDTAVYFCARGGRYCSDVTCYSGEPFDYWGQGTLVTVSS
VL: EIMLTQSPDFQSVTPKEKVTITCRASQSIGSSLHWYQQKPDQSPKLLIKFASQSISGVPSRFSGSGSGTDFTLTINSLEAEDAAAYYCHQSSSLPHTFGPGTKVEIK
B6: IMPI-067 (antibody, V domains shown)
VH: QVQLVESGGGVVQPGTSLRLSCAASGFTFNSFGMHWVRQAPGKGLEWVAVISYDGSSKYYADSVKGRFTISRDNSKNTLYLQMNSLRAEDTAVYYCAKDEGDYDDYYYGMDVWGQGTTVTVSS
VL: EIVLTQSPGSLSLSPGERATLSCRASQSLSSRYLAWYHQKPGQAPRLLIYGASSRATGIPDRFSGSGSGTDFTLTISGLEPEDFAVYYCQQYGNSITFGGGTKVEIK
B7: IMPI-056 (antibody, V domains shown)
VH: EVQLVESGGGLIQPGGSLRLSCAASGLTVSSNYMNWVRQAPGKKLEWVSVIYSGGSTFYADSVRGRFTISRDNSKNTLFLQMNSLRAEDSAVYYCARDLGPYGVDVWGQGTTVTVSS
VL: DIQLTQSPSFLSASVGDRVTITCWASQGISSYLAWYQQKPGKAPKLLIYAASTLQSGVPSRFSGSGSGTEFTLTISSLQPEDFATYYCQQLNSYPLTFGQGTRLEIK
B8: IMPI-060 (antibody, V domains shown)
VH: B7 VH with L27V, N35S, K44G, R64K, F79Y, S90T, G100S, P101Y, V104M
VL: B7 VL with R61K, L96S, T97S, R103K
B9: IMPI-054 (antibody, V domains shown)
VH: EVQLVESGGGLIQPGGSLRLSCAASGLTVSSNYMSWVRQAPGKGLEWVSIIYSGGSTYYADSVKGRFTISRDNSKNTLYLQMNSLRAEDTAVYYCARLGGYYYYGMDVWGQGTTVTVSS
VL: DIQMTQSPSSLSASVGERVTITCQASQDIRNYLNWYQKKPGKAPKLLIYDSSNLETGVPSRFSGSGSGTDFTFTISSLQPEDIATYYCQQYDNLPITFGQGTRLEIK
B10: YANG-2108 (antibody, V domains shown)
VH: QVQLQESGPGQVKPSGTLSLTCAVSGGSIRSSNWWIWVRQPPGKGLEWIGEIYHGGNTNYSPSLKSRVSISVDKSKNHFSLNLTSVTAADTAVYYCARALYDVGGVFDIWGQGTMVTVSS
VL: QSALTQPASVSGSPGQSITISCTGSSSDVGGYNYVSWYQQHPGKAPKLMIYDVSERPSGVSNRFSGSKSGNTASLTISGLQAEDEGDYYCCSYAANSNVVFGGGTKLSVL
B11: YANG-2203 (antibody, V domains shown)
VH: QVQLVQSGAEVKQPGASVKVSCRASGYALTSFYVHWVRQAPGQGLEWMGIIKPSGGDTIYAQNLQGRVTMTRDTSTNTFYVELSSLRSEDTALYYCAISGNTRAFEIWGQGTMVTVSL
VL: QSVLTQPPSVSAAPGQKVTISCSGSSSNIGNNFVSWYQQLPGMVPKLLIYANNKRPSGIPDRFSGSRSGTSATLGITGLQTGDEADYYCGTWDSSRSAVLFGGGTKMTVL
B12: YANG-2204 (antibody, V domains shown)
VH: QMQLVQSGAEVKKPGASVKFSCKTSGYTFTNYYMVWVRQAPGQGLEWMGIIKPSGGNTIYAQKFQGRVTMTRDTSTNTVYMDLTSLRSEDTAVYYCARTGDRAFDVWGQGTMVTVSS
VL: B11 VL with F33Y, M43T, V44A, A51D, R67K, R96L, S97G, V99G, L100V, M107L
B13: YANG-2111 (antibody, V domains shown)
VH: GVQLVESGGGLVQPGRSLRLSCAASGFTFDDYALHWVRQVPGKGLEWVSSISWNSDDLGYADSVEGRFTISRDNAKNSLYLQMSSLRTEDTALYYCVKDTRAHYDILAGYRGLDSWGQGTLVTVSS
VL: DIVMTQSPLSLPVTPGEPASISCRSTQSLLHSNGYNFLDWYLQKPGQSPQLLIYLGSNRASGVPDRFSGSGSGTDFSLKISRVEAEDIGIYYCIQGLQTPITFGQGTRLEIK
B14: IMPI-063 (antibody, V domains shown)
VH: EVQLVESGGGVVRPGGSLRLSCAASGFTFDDYGMSWVRQAPGKGLEWVSGIYWNGGSTGYADSVKGRFTISRDNAKNSLYLQMNSLRAEDMALYYCARGVGATDYWGQGTLVTVSS
VL: EIVLTQSPGTLSLSSGERATLACRASESVRGSFLAWYQQKPGQAPRLLIYGASRRATGIPDRFSGSGSGTDFTLTISRLEPEDFAVYYCQQYGNSPMCSFGQGTKLEIK
B15: IMPI-022 (antibody, V domains shown)
VH: EVQLVESGGGLVQPGRSLRLSCAASGFTFDDYAMHWVRQAPGKGLEWVSGITWNSGSIGYADSVKGRFTISRDNAKNSLYLHMNSLRVEDTALYYCAKDLQGDYYYYGVDVWGQGTTVTVSS
VL: B1 VL with T25A, I48L, E55V, G66R, N92I, K103R
B16: IMPI-032 (antibody, V domains shown)
VH: QVQLQESGPGLVKPSGTLSLTCAVSGGSISSNKWWSWVRQPPGKGLEWIGEIDHSGSTMYNPSLKSRVTISVDKSKNQFSLKLNSVTAADTAVYYCTGEGYNWNYWGQGTRVTVSS
VL: DVVMTQSPLSLPVTLGQTASISCRSSQSLLYTDGNTYLSWFQQRPGQSPRRLIYKVSKWESGVPDRFSGSGSGTDFTLKISRVEAEDVGIYYCMQGTHWPLTFGGGTKVEIK

Positions count from the first letter of the chain named.

The first experiment concerns the target SARS-CoV-2 spike protein of the WA-1 strain live virus (carrying D614G) (SARS-CoV-2, UniProt P0DTC2 14-1273). In words: cell-based or functional assay.
B1: the “Live virus WA-1 strain IC50” value is 1.82 µg/mL. With B2, the “Live virus WA-1 strain IC50” value stood at 3.67 µg/mL.

The target in the next experiment is SARS-CoV-2 spike protein on authentic virus of the B.1.351 (Beta) strain (SARS-CoV-2). In words: cell-based or functional assay.
As to B3, the “Live virus B.1.351 strain IC50” value came out at 4.51 µg/mL.

As for B4, the “Live virus B.1.351 strain IC50” value is 3.94 µg/mL. The same measure, in the same setting: then B5, with 25 µg/mL. For the molecule B6, the “Live virus B.1.351 strain IC50” value turned out to be 25 µg/mL. B7: the “Live virus B.1.351 strain IC50” value amounted to 25 µg/mL.

The next experiment deals with SARS-CoV-2 spike protein of the B.1.351 (Beta) strain live virus (SARS-CoV-2). In words: cell-based or functional assay.
Regarding B1, the “Live virus B.1.351 strain IC50” value was 5.4 µg/mL. On the same count and under the same terms, then B2, with 8.9 µg/mL.

For a further experiment, the target named is SARS-CoV-2 spike protein on authentic virus carrying D614G (WA-1 strain) (SARS-CoV-2, UniProt P0DTC2 14-1273). In words: cell-based or functional assay.
For B4, the “Live virus WA-1 strain IC50” value stood at 0.00032 µg/mL.

For the molecule B5, the “Live virus WA-1 strain IC50” value turned out to be 0.00032 µg/mL. Turning to B8, the “Live virus WA-1 strain IC50” value was found to be 0.171 µg/mL. Still for that read-out and setting: then B9, with 0.015 µg/mL.

The target in the next experiment is mutant (SARS-CoV-2 spike pseudovirus mutant, not defined). In words: cell-based or functional assay.
For B10, the “PV IC50 against mutant” value amounted to 0.23 nM.

As to B11, the “PV IC50 against mutant” value amounted to 32.5 nM. On to B12, for which the “PV IC50 against mutant” value is 8.83 nM. B13: the “PV IC50 against mutant” value was 1 nM.

The next experiment concerns the target SARS-CoV-2 spike protein receptor binding domain (isolated RBD) (SARS-CoV-2, UniProt P0DTC2 319-541). In words: SPR (Biacore 8K), IgG1 captured via anti-hFc, RBD as analyte. In general terms: Surface plasmon resonance follows binding to a sensor surface in real time, without labels.
For the molecule B14, the binding result was “no binding (tested: up to 100 nM RBD)”.

Turning to B15, the binding result is on record as “no binding (tested: up to 100 nM RBD)”. On to B16, for which the binding result was “no binding (tested: up to 100 nM RBD)”.
